Measured values from several laboratories, pooled; numbers as filed in NIAID ChemDB.

Common to all: whole-cell or culture tests; species: HIV-1; read-out: EC50

ECn is the concentration giving n% inhibition of infection, replication or growth. Neighbouring rows are from separate reports. An empty or dashed field is not shown.

SMILES | strain or isolate | cell line | changes | value
[N-]=[N+]=N[C@H]1C[C@H](n2cc3c(nc2=O)NOCC3)O[C@@H]1CO | IIIB | MT-4 | - | 200 µM
Cc1cn([C@@H]2O[C@@H]3CN[C@@]4(OCC5CCOC5)CS(=O)(=O)O[C@@]34[C@H]2O)c(=O)[nH]c1=O | IIIB | MT-4 | - | 23.9 µM
O=C(O)C(=O)/C=C(\O)c1cc(Cc2ccccc2F)cn(Cc2cccc(Cl)c2)c1=O | - | MAGI | - | 0.7 µM
Cc1ccc(S(=O)(=O)NC(Cc2ccccc2)c2nnc(SCc3ccc(Br)cc3)o2)cc1 | IIIB | MT-4 | - | >82.1 µg/mL
COc1cccc2c1nc(-c1ccccc1F)n2Cc1cccs1 | IIIB | MT-4 | - | 0.011 µg/mL
O=C(O)C(=O)/C=C(\O)c1cc(Cc2ccc(F)cc2F)cn(Cc2ccccc2F)c1=O | - | MAGI | - | 0.5 µM
Cc1ccc(S(=O)(=O)NC(Cc2ccccc2)c2nnc(SCc3ccc(Cl)cc3)o2)cc1 | IIIB | MT-4 | - | >99.4 µg/mL
COc1cccc2c1nc(-c1ccccc1F)n2Cc1cc(F)cc(F)c1 | IIIB | MT-4 | - | 0.0083 µg/mL
CCCOC12CS(=O)(=O)OC13[C@@H](CN2)O[C@@H](n1cc(C)c(=O)[nH]c1=O)[C@@H]3O | IIIB | CEM | - | >250 µM
C=CCNC(=O)c1c(COC)nc(Nc2ccc(C#N)cc2)nc1Nc1c(C)cc(/C=C/C#N)cc1C | MDR | MT4 CMV-EGFP | - | 0.191 µM
CC(O)c1nc(=O)n([C@@H]2O[C@H](CO)[C@H]3OC(C)(C)O[C@H]32)cc1CO | IIIB | MT-4 | - | >300 µM
Nc1ccn([C@H]2CC[C@@](F)(CO)C2)c(=O)n1 | - | PBMC | - | >100 µM
CCOC(=O)C1=C2NC(=O)N([C@H]3C[C@H](N=[N+]=[N-])[C@@H](CO)O3)C=C2COC1=O | IIIB | MT-4 | - | >300 µM
COCc1nc(Nc2ccc(C#N)cc2)nc(Nc2c(C)cc(/C=C(\C)C#N)cc2C)c1C(=O)NCc1ccncc1 | IIIB | MT4 CMV-EGFP | - | 0.00389 µM
COP(=O)(c1cc(C)cc(CCC#N)c1)c1c(C(N)=O)[nH]c2ccc(Cl)cc12 | Clinical isolate | PBMC | K103N/Y181C | 0.0088 µM
N#Cc1cc(Cl)cc(Oc2c(Br)ccc(CC(=O)Nc3ccc(S(N)(=O)=O)cc3Cl)c2F)c1 | - | MT-4 | K103N | 0.0022 µM
CSCCC(NS(=O)(=O)c1ccc(C)cc1)c1nnc(SCc2ccccc2)o1 | IIIB | MT-4 | - | >30.48 µg/mL
COCc1nc(Nc2ccc(C#N)cc2)nc(Nc2c(C)cc(/C=C/C#N)cc2C)c1C(=O)N1CCN(C)CC1 | L1001+K103N | MT4 CMV-EGFP | - | 2.45 µM
COc1cccc2c1nc(-c1ccccc1F)n2Cc1cccc(Cl)c1 | IIIB | MT-4 | - | 0.016 µg/mL
O=c1[nH]cnc2c1ncn2[C@H]1CC[C@@](F)(CO)C1 | - | PBMC | - | >100 µM
Cc1ccc(S(=O)(=O)NC(C)c2nnc(SCc3ccc(F)cc3)o2)cc1 | IIIB | MT-4 | - | >70.8 µg/mL
Cc1cn([C@@H]2O[C@@H]3CN[C@@]4(O[Si](C)(C)C(C)(C)C)CS(=O)(=O)O[C@@]34[C@H]2O[Si](C)(C)C(C)(C)C)c(=O)[nH]c1=O | IIIB | MT-4 | - | >2 µM
C[C@@H]1O[C@](/C=C/C2CC2)(C(F)(F)F)c2cc(F)ccc2NC1=O | RF | MT-2 | - | <0.0076 µM
C[C@H](Cn1cnc2c(N)ncnc21)OCP(=O)(O)O | - | TZM-bl | NL/2AZT+348 | 10.6 µM
Cc1cn([C@@H]2O[C@@H]3CN[C@@]4(C(N)=O)CS(=O)(=O)O[C@@]34[C@H]2O)c(=O)[nH]c1=O | IIIB | MT-4 | - | >250 µM
O=C(O)C(=O)/C=C(\O)c1cc(Cc2ccccc2)cn(Cc2cc(Cl)ccc2F)c1=O | - | MAGI | - | 0.9 µM
O=c1nc2c(cn1[C@@H]1O[C@H](CO)[C@@H](O)[C@H]1O)CON2 | IIIB | MT-4 | - | >300 µM
CC(C)C#C[C@]1(C(F)(F)F)OCC(=O)Nc2ccc(Cl)cc21 | RF | MT-2 | - | <0.0097 µM
O=C(O)C(=O)/C=C(\O)c1cc(Cc2ccccc2Cl)cn(Cc2ccc(F)cc2F)c1=O | - | MAGI | - | 0.8 µM
CC[C@@H]1O[C@](/C=C/C2CC2)(C(F)(F)F)c2cc(Cl)ccc2NC1=O | - | - | RT-K103N | <0.013 µM
COCc1nc(Nc2ccc(C#N)cc2)nc(Nc2c(C)cc(/C=C/C#N)cc2C)c1C(=O)N(C)OC | MDR | MT4 CMV-EGFP | - | 0.537 µM
CCOCn1c(Cc2ccccc2)c(C=O)c(=O)[nH]c1=O | IIIB | MT-4 | - | >100 µM
O=C1CO[C@](C#CC2CC2)(C(F)(F)F)c2cc(Cl)ccc2N1 | RF | MT-2 | - | <0.0091 µM
CSCCC(NS(=O)(=O)c1ccc(C)cc1)c1nnc(SCc2ccc(Cl)cc2)o1 | IIIB | MT-4 | - | >13 µg/mL
N#Cc1ccc(Cn2cc(Cc3ccccc3F)cc(/C(O)=C/C(=O)C(=O)O)c2=O)cc1 | - | MAGI | - | 1.1 µM
COc1cccc2c1nc(-c1ccccc1F)n2Cc1cccc(F)c1F | IIIB | MT-4 | - | 0.0055 µg/mL
CCOCn1c(Cc2ccccc2)c(I)c(=O)[nH]c1=O | - | - | RT-Y181C | 10 µM
O=c1nc(NO)c(CCCl)cn1[C@H]1C[C@H](O)[C@@H](CO)O1 | IIIB | MT-4 | - | >300 µM
Cc1ccc(Cn2cc(Cc3ccccc3F)cc(/C(O)=C/C(=O)C(=O)O)c2=O)cc1 | - | MAGI | - | 0.7 µM
COCc1nc(Nc2ccc(C#N)cc2)nc(Nc2c(C)cc(/C=C/C#N)cc2C)c1C(=O)NCc1ccncc1 | K103N+Y101C | MT4 CMV-EGFP | - | 0.0209 µM
CCOCn1c(Cc2ccccc2)c(C(C)C)c(=O)[nH]c1=O | IIIB | MT-4 | - | 0.005 µM
O=c1ccn([C@H]2CC[C@@](F)(CO)C2)c(=O)[nH]1 | - | PBMC | - | >100 µM
COCc1nc(Nc2ccc(C#N)cc2)nc(Nc2c(C)cc(/C=C/C#N)cc2C)c1C(=O)NCc1ccccn1 | MDR | MT4 CMV-EGFP | - | 0.0933 µM
[N-]=[N+]=N[C@H]1C[C@H](n2cc(CCON)c(=O)[nH]c2=O)O[C@@H]1CO | IIIB | MT-4 | - | >300 µM
COCc1nc(Nc2ccc(C#N)cc2)nc(Nc2c(C)cc(/C=C/C#N)cc2C)c1C(=O)N1CCCC(C(N)=O)C1 | IIIB | MT4 CMV-EGFP | - | 0.0537 µM
COc1ccccc1Cn1c(-c2ccccc2F)nc2c(OC)cccc21 | IIIB | MT-4 | - | 0.0041 µg/mL

For reference, 3 entries again:

C[C@H](Cn1cnc2c(N)ncnc21)OCP(=O)(O)O ; cell line: TZM-bl ; changes: NL/2AZT+348 ; value: 10.6 µM
COP(=O)(c1cc(C)cc(CCC#N)c1)c1c(C(N)=O)[nH]c2ccc(Cl)cc12 ; strain or isolate: Clinical isolate ; cell line: PBMC ; changes: K103N/Y181C ; value: 0.0088 µM
O=C(O)C(=O)/C=C(\O)c1cc(Cc2ccc(F)cc2F)cn(Cc2ccccc2F)c1=O ; cell line: MAGI ; value: 0.5 µM